Results of unrelated studies side by side (data: NIAID ChemDB).

Common to all: whole-cell or culture tests; species: Respiratory syncytial virus; cells: HeLa; endpoint: EC50

ECn is the concentration giving n% inhibition of infection, replication or growth. Neighbouring rows are from separate reports. An empty or dashed field is not shown.

SMILES | strain | read by | result
Nc1ccn([C@@H]2C=C(CO)[C@@H](O)[C@H]2O)c(=O)n1 | LONG | cytopathic effect | 0.04 µg/mL
Cc1ccc(O)c(Cn2c(NCC(O)CO)nc3ccccc32)n1 |  | cytopathic effect | 0.501 µM
Cc1cc(C)c2nc(NC3CCN(CCCC(N)=O)CC3)n(Cc3nc(C)ccc3O)c2c1 |  | cytopathic effect | 0.04 µM
CC1(C)[C@@H](CO)CC[C@@]1(C)Cn1nnc2c(Cl)ncnc21 |  | cytopathic effect | >400 µg/mL
CC=NC(=N)c1nc(-c2ccc(C)cc2)n(Cc2ccccc2)n1 | LONG | cytopathic effect | >20 µg/mL
CC1(C)[C@@H](CCO)C[C@H]1n1nnc2c(=O)[nH]c(N)nc21 |  | cytopathic effect | >400 µg/mL
C=C(N=CC)c1nc(-c2ccccc2)n([C@@H]2O[C@H](CO)[C@@H](O)[C@H]2O)n1 | LONG | cytopathic effect | 100 µg/mL
CCOC(=O)CN1CCC(Nc2nc3cc(C)cc(C)c3n2Cc2nc(C)ccc2O)CC1 |  | cytopathic effect | 1.585 µM
Cc1cn([C@@H]2OC[C@H](CO)[C@H]2O)c(=O)[nH]c1=O |  | cytopathic effect | >80 µg/mL
Cc1cc(C)c2nc(NCCc3ccccc3)n(Cc3nc(C)ccc3O)c2c1 |  | cytopathic effect | 100 µM
O=C1CSc2nnc(-c3cn(-c4ccccc4)nc3-c3ccccc3)n2N1 |  | cytopathic effect | >16 µg/mL
CC1(CO)CCC(Cn2cnc3c(=O)[nH]c(N)nc32)C1(C)C |  | cytopathic effect | >400 µg/mL
CCCOc1ncn(-c2ccc(NC(=S)Nc3cnccn3)cc2)n1 | LONG | cytopathic effect | 4 µg/mL
CC=NC(=N)c1nc(-c2cccc(C)c2)n(C/C=C/c2ccccc2)n1 | LONG | cytopathic effect | >20 µg/mL
Nc1ncnc2c1ncn2[C@H]1OC[C@@H](CO)C1O |  | cytopathic effect | >80 µg/mL
Cc1ccc(O)c(Cn2c(NCC3COC(C)(C)O3)nc3ccccc32)n1 |  | cytopathic effect | 3.981 µM
Cc1cn([C@H]2OC[C@@H](CO)C2F)c(=O)[nH]c1=O |  | cytopathic effect | >80 µg/mL
COc1ccc(CCNc2nc3ccccc3n2Cc2nc(C)ccc2O)cc1OC |  | cytopathic effect | 10 µM
Nc1ccc2c(c1)CSSC2 | LONG | cytopathic effect | >177.9 µM
Cc1ccc(O)c(Cn2c(NCCCN3CCCCC3)nc3ccccc32)n1 |  | cytopathic effect | 0.316 µM
Cc1nc2ccc(Br)cc2c(=O)n1-c1nnc(-c2cccc(Cl)c2Cl)c(N)n1 |  | cytopathic effect | >16 µg/mL
Cc1ccc(O)c(Cn2c(NC3CCN(CC(O)c4ccccc4)CC3)nc3c(C)cccc32)n1 |  | cytopathic effect | 0.251 µM
Cc1ccc(O)c(Cn2c(NCCCC(N)=O)nc3ccccc32)n1 |  | cytopathic effect | 50.1 µM
O=C(NC1CC1)c1cc2c(s1)-c1ccccc1N(C(=O)c1ccc(NC(=O)c3ccccc3-c3ccccc3)cc1)CC2 | A2 (A) | plaque count | 0.28 µM
OC[C@H]1O[C@@H](c2cc(Cl)c(F)cc2F)C[C@@H]1O |  | cytopathic effect | >400 µg/mL
CCCOc1ncn(-c2ccc(NC(=S)NC34CC5CC(CC(C5)C3)C4)cc2)n1 | LONG | cytopathic effect | 1.6 µg/mL
c1ccc2c(c1)CSSC2 | A2 (A) | cytopathic effect | 11.1 µM
Cc1ccc(O)c(Cn2c(NC3CCN(CC(O)CO)CC3)nc3c(C)cccc32)n1 |  | cytopathic effect | 0.013 µM
C=C(N=CC)c1nc(-c2ccc(C)cc2)n([C@@H]2O[C@H](CO)[C@@H](O)[C@H]2O)n1 | LONG | cytopathic effect | ≥100 µg/mL
Cc1cc(C)c2c(c1)nc(NC1CCCCC1)n2Cc1nc(C)ccc1O |  | cytopathic effect | 100 µM
O=c1ccn([C@@H]2O[C@H](/C=C/C=C(Br)Br)[C@@H](O)[C@H]2O)c(=O)[nH]1 |  |  | ≥200 µM
CCc1nc(-n2c(-c3ccccc3)nc3ccc(Br)cc3c2=O)nc(N)c1-c1ccc(Cl)cc1 |  | cytopathic effect | >16 µg/mL
CC1(C)[C@@H](CCO)C[C@H]1n1nnc2c(Cl)nc(N)nc21 |  | cytopathic effect | 400 µg/mL
CCOc1ncn(-c2ccc(NC(=S)NC3O[C@H](CO)[C@@H](O)[C@H](O)[C@H]3O)cc2)n1 | LONG | cytopathic effect | 40 µg/mL
c1ccc(C2=Nn3c(nnc3-c3cn(-c4ccccc4)nc3-c3ccccc3)SC2)cc1 |  | cytopathic effect | >3.2 µg/mL
CCCOc1ncn(-c2ccc(NC(=S)NC3O[C@H](CO)[C@@H](O)[C@H](O)[C@H]3O)cc2)n1 | LONG | cytopathic effect | 100 µg/mL
CC(C)CS[C@H]1C[C@@H](n2cnc3c(N)ncnc32)[C@H](O)[C@@H]1O |  | cytopathic effect | >80 µg/mL
CC(=O)c1ccc2c(c1)CSSC2 | LONG | cytopathic effect | >163.9 µM
NC1=Nn2c(nnc2-c2cn(-c3ccccc3)nc2-c2ccccc2)SC1 |  | cytopathic effect | >16 µg/mL
CC1(C)[C@@H](CO)CC[C@@]1(C)Cn1cc(I)c(=O)[nH]c1=O |  | cytopathic effect | >400 µg/mL
Cc1cc(C)c2nc(NC3CCN(CCO)CC3)n(Cc3nc(C)ccc3O)c2c1 |  | cytopathic effect | 0.003 µM
NC1=CC(c2ccccc2)=Nn2c(nnc2-c2cn(-c3ccccc3)nc2-c2ccccc2)S1 |  | cytopathic effect | >16 µg/mL
Cc1cc(C)c2nc(NCC3COC(C)(C)O3)n(Cc3nc(C)ccc3O)c2c1 |  | cytopathic effect | 100 µM
CC1(C)[C@@H](CCO)C[C@H]1n1nnc2c(=O)[nH]cnc21 |  | cytopathic effect | >400 µg/mL
CCOC(=O)CSc1nnc(-c2cn(-c3ccccc3)nc2-c2ccccc2)n1N |  | cytopathic effect | >16 µg/mL
CCOC(=O)CN1CCC(Nc2nc3c(C)cccc3n2Cc2nc(C)ccc2O)CC1 |  | cytopathic effect | 1.995 µM
CCOc1ncn(-c2ccc(NC(=S)Nc3cnccn3)cc2)n1 | LONG | cytopathic effect | 8 µg/mL
CC1(CO)CCC(Cn2nnc3c(Cl)nc(N)nc32)C1(C)C |  | cytopathic effect | >400 µg/mL
Nc1nc(-n2c(-c3ccccc3)nc3ccc(Br)cc3c2=O)nnc1-c1cccc(Cl)c1Cl |  | cytopathic effect | >16 µg/mL
CC1(CO)CCC(Cn2cnc3c(N)nc(N)nc32)C1(C)C |  | cytopathic effect | 40 µg/mL
CC1(C)[C@@H](CO)CC[C@@]1(C)Cn1cnc2c(=O)[nH]cnc21 |  | cytopathic effect | >400 µg/mL

For reference, 8 entries again:

SMILES,strain,read by,result
Cc1cc(C)c2nc(NC3CCN(CCO)CC3)n(Cc3nc(C)ccc3O)c2c1,,cytopathic effect,0.003 µM
CC1(C)[C@@H](CCO)C[C@H]1n1nnc2c(=O)[nH]c(N)nc21,,cytopathic effect,>400 µg/mL
Cc1cc(C)c2nc(NCCc3ccccc3)n(Cc3nc(C)ccc3O)c2c1,,cytopathic effect,100 µM
CC(=O)c1ccc2c(c1)CSSC2,LONG,cytopathic effect,>163.9 µM
CC=NC(=N)c1nc(-c2cccc(C)c2)n(C/C=C/c2ccccc2)n1,LONG,cytopathic effect,>20 µg/mL
OC[C@H]1O[C@@H](c2cc(Cl)c(F)cc2F)C[C@@H]1O,,cytopathic effect,>400 µg/mL
CC1(C)[C@@H](CCO)C[C@H]1n1nnc2c(Cl)nc(N)nc21,,cytopathic effect,400 µg/mL
CC1(CO)CCC(Cn2nnc3c(Cl)nc(N)nc32)C1(C)C,,cytopathic effect,>400 µg/mL